Test results as given in US3965109A, “Certain aryl amino pyridines” (priority 1971, dated 1976).

Legend:
Format in all cases: in vivo
[1] = tested on: Puccinia recondita (wheat); assay: Fungicidal test against foliar disease A (foliage spray plus soil drench); conditions: 100 ppm spray and drench; 10 days
[2] = tested on: Piricularia oryzae (rice); assay: Fungicidal test against foliar disease E (foliage spray plus soil drench); conditions: 100 ppm spray and drench; 7 days
[3] = tested on: Phytophthora infestans (tomato); assay: Fungicidal test against foliar disease B (foliage spray plus soil drench); conditions: 100 ppm spray and drench; 3 days
[4] = tested on: Plasmopara viticola (vine); assay: Fungicidal test against foliar disease C (foliage spray plus soil drench); conditions: 100 ppm spray and drench; 10 days

O=[N+]([O-])c1cc([N+](=O)[O-])c(Nc2c(F)c(F)nc(F)c2F)c([N+](=O)[O-])c1
Amount of disease grading, disease A (Table 4) [1]: 0 (61 to 100) | Amount of disease grading, disease E (Table 4) [2]: 0 (61 to 100) | Amount of disease grading, disease B (Table 4) [3]: 3 (0 to 5) | Amount of disease grading, disease C (Table 4) [4]: 3 (0 to 5)
